PubChem BioAssay AID624099 | ICCB-Longwood – 2012
Assay: 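Knock-downs relieving repression by E2 of an HPV18 LCR luciferase reporter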 (primary screen). Cells: human C33A cervical carcinoma cells (HPV-negative) stably expressing BPV1 E2 and an HPV18 LCR luciferase reporter. Reagent: siRNA pool against human genes, 40 nM. Time to read-out: 72 h. Read-out: 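Per-well luciferase luminescence, z-scored on each plate against the plate mean and SD with control wells left out, then averaged across three replicate plates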. Direction: mean z-score and z-score: higher = stronger reporter signal, weaker E2 silencing. Rule for the call: 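Mean z ≥ 2 together with z ≥ 2 in two or more of the three replicates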.
Shown is an unselected part of about 21,000 deposited reagents. Over the whole deposit, 497 (2.4%) got an active call. 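Higher z means weaker E2 silencing; only reporter increases were scored, and knock-downs that hurt cell survival may mask genuine repressor factors.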

no.	gene symbol	mean z-score	z-score, replicate A	z-score, replicate B	z-score, replicate C	activity call
1	MOBP	0.94	0.78	1.09	0.94	inactive
2	MAGOH	-0.57	-0.45	-0.81	-0.47	inactive
3	TMEM141	2.66	2.58	2.62	2.78	active
4	ADAM8	-1.03	-0.89	-1.03	-1.17	inactive
5	ATG101	0.75	0.92	0.63	0.69	inactive
6	DNTTIP1	-0.15	-0.49	-0.14	0.2	inactive
7	OR2T1	-0.41	-0.38	-0.12	-0.72	inactive
8	AKAP8	1.12	1.03	0.89	1.44	inactive
9	LOC402094 (retired record)	0.41	0.31	0.22	0.7	inactive
10	MRC1	-0.23	-0.31	-0.32	-0.07	inactive
11	CABLES1	-1.89	-1.75	-2.27	-1.65	inactive
12	ADD1	0.66	0.52	0.69	0.78	inactive

3 of these entries, set out differently:
{"gene symbol":"ATG101","mean z-score":0.75,"z-score, replicate A":0.92,"z-score, replicate B":0.63,"z-score, replicate C":0.69,"activity call":"inactive"}
{"gene symbol":"DNTTIP1","mean z-score":-0.15,"z-score, replicate A":-0.49,"z-score, replicate B":-0.14,"z-score, replicate C":0.2,"activity call":"inactive"}
{"gene symbol":"OR2T1","mean z-score":-0.41,"z-score, replicate A":-0.38,"z-score, replicate B":-0.12,"z-score, replicate C":-0.72,"activity call":"inactive"}

More reagents follow.
no.	gene symbol	mean z-score	z-score, replicate A	z-score, replicate B	z-score, replicate C	activity call
13	SEPTIN7	-0.04	-0.03	-0.05	-0.04	inactive
14	RAP1B	-0.27	-0.29	0.02	-0.54	inactive
15	GLT8D2	-0.05	-0.08	-0.03	-0.04	inactive
16	C6orf47	-0.49	-0.34	-0.89	-0.24	inactive
17	RPL18	-1.41	-1.36	-1.35	-1.53	inactive
18	SAAL1	-0.01	-0.22	-0.35	0.53	inactive
19	DBR1	0.05	0.04	-0.28	0.38	inactive
20	MRPL3	-0.97	-0.65	-1.12	-1.12	inactive
21	SH2D4A	0.66	0.76	0.48	0.73	inactive
22	LOC401530 (retired record)	-1.3	-1.22	-1.42	-1.28	inactive
23	OVOL2	1.47	1.23	1.53	1.66	inactive
